A mixed list of measured activities; the numbers were collected in NIAID ChemDB.

All rows: whole-cell or culture tests; organism: HIV-1; cells: MT-2; endpoint: EC50

Neighbouring rows are from separate reports. ECn is the concentration giving n% inhibition of infection, replication or growth. An empty or dashed field is not shown.

smiles | strain | mutations | method | result
CC1([C@@H]2CC[C@]3(NCCN4CCC(F)(F)CC4)CC[C@]4(C)[C@H](CC[C@@H]5[C@@]6(C)CC[C@H](OC(=O)[C@H]7C[C@@H](C(=O)O)C7(C)C)C(C)(C)[C@@H]6CC[C@]54C)[C@@H]23)CC1 | 92HT599 | - | p24 / ELISA | >0.01 µM
[2H]C(CCCN)(CNCC[C@@]12CC[C@]3(C)[C@H](CC[C@@H]4[C@@]5(C)CC[C@H](OC(=O)[C@H]6C[C@@H](C(=O)O)C6(C)C)C(C)(C)[C@@H]5CC[C@]43C)C1=C(C(C)C)C(=O)C2)NC(=O)c1ccc(Cl)cc1 | 92HT599 | - | p24 / ELISA | <1 µM
Nc1nc(NC2CC2)c2ncn([C@H]3C=C[C@@H](CO)C3)c2n1 | Clinical isolate | K103N/M184V | recombinant virus assay | 0.264 µM
Cc1ncc(-c2cnc(OCCC3CC3)c(F)c2)c(N2CCC(C)(C)CC2)c1[C@H](OC(C)(C)C)C(=O)O | NL4-3 | - | luminescence | 0.0045 µM
COc1cc(CCNC(=S)Nc2ccc(Cl)cn2)cc(OC)c1OC | IIIB | - | MTT | 88.5 µM
CC1([C@@H]2CC[C@]3(NCCN4CCN(C(=O)c5ccccc5)CC4)CC[C@]4(C)[C@H](CC[C@@H]5[C@@]6(C)CC[C@H](OC(=O)[C@H]7C[C@@H](C(=O)O)C7(C)C)C(C)(C)[C@@H]6CC[C@]54C)[C@@H]23)CC1 | 92HT599 | - | p24 / ELISA | ≤0.01 µM
CCc1ccnc(Nc2ccc(C#N)c(Oc3cccc(/C=C/C#N)c3)c2)n1 | IIIB | - | MTT | 0.048 µM
C#C[C@@]1(CO)C=C[C@H](n2cc(C)c(=O)[nH]c2=O)O1 | Clinical isolate | M41L/M184V/L210W/T215Y | recombinant virus assay | 1.42 µM
Cc1ncc(-c2ccc(OCCC3COC3)nc2)c(N2CCC(C)(C)CC2)c1[C@H](OC(C)(C)C)C(=O)O | NL4-3 | - | luminescence | 0.0011 µM
C=C1CC[C@@H](OC(C)=O)[C@@]2(C)CCC3[C@](C)(CC[C@]3(O)C(C)C)C[C@]12O | IIIB | - | MTT | 0.794 µM
CC(C)C1=C2[C@H]3CC[C@@H]4[C@@]5(C)CC[C@H](OC(=O)[C@H]6C[C@@H](C(=O)O)C6(C)C)C(C)(C)[C@@H]5CC[C@@]4(C)[C@]3(C)CC[C@@]2(CCNC2(c3ncc(Cl)cn3)CC2)CC1=O | 92HT599 | - | p24 / ELISA | <1 µM
CCC(F)(F)COc1ccc(-c2cnc(C)c([C@H](OC(C)(C)C)C(=O)O)c2N2CCC(C)(C)CC2)nc1 | NL4-3 | - | luminescence | 0.0056 µM
O=S(=O)(O)c1ccc2c(c1)-c1nc-2nc2nc(nc3[n-]c(nc4[n-]c(n1)c1cc(S(=O)(=O)O)ccc41)c1cc(S(=O)(=O)O)ccc31)-c1cc(S(=O)(=O)O)ccc1-2.[Al+3] | IIIB | - | cell fusion / fluorescence | <10 µg/mL
CC1(C)C=C2C3CCC4[C@@]5(C)CCC(=O)C(C)(C)C5CC[C@@]4(C)[C@]3(C)CC[C@@]2(C)CC1=O | NL4-3 | - | - | 4.038 µM
NS(=O)(=O)c1ccc(NC(=S)NCCc2ccccc2F)cc1 | IIIB | - | MTT | 95.8 µM
C=C(C)[C@@H]1CC[C@]2(NCCN3CCN(S(=O)(=O)c4ccccc4)CC3)CC[C@]3(C)[C@H](CC[C@@H]4[C@@]5(C)CC[C@H](OC(=O)[C@H]6C[C@@H](C(=O)O)C6(C)C)C(C)(C)[C@@H]5CC[C@]43C)[C@@H]12 | 92HT599 | - | p24 / ELISA | ≤0.01 µM
Cc1ncc(-c2ccc(NCCOc3ccc(F)cc3F)nc2)c(N2CCC(C)(C)CC2)c1[C@H](OC(C)(C)C)C(=O)O | NL4-3 | - | luminescence | 0.0016 µM
CC1(C)C(=O)CC[C@@]2(C)C1CC[C@]1(C)C2CCC2C3=C[C@](C)(CO)CC[C@]3(C)CC[C@]21C | NL4-3 | - | - | 10 µM
CC1([C@@H]2CC[C@]3(NCCN4CCN(S(C)(=O)=O)CC4)CC[C@]4(C)[C@H](CC[C@@H]5[C@@]6(C)CC[C@H](OC(=O)[C@H]7C[C@@H](C(=O)O)C7(C)C)C(C)(C)[C@@H]6CC[C@]54C)[C@@H]23)CC1 | 92HT599 | - | p24 / ELISA | ≤0.01 µM
CC(C)C1=C2[C@H]3CC[C@@H]4[C@@]5(C)CC[C@H](OC(=O)[C@H]6C[C@@H](C(=O)O)C6(C)C)C(C)(C)[C@@H]5CC[C@@]4(C)[C@]3(C)CC[C@@]2(CCN(CCN(C)C)C(=O)c2cc(C(C)C)[nH]n2)CC1=O | 92HT599 | - | p24 / ELISA | <1 µM
COc1ccc(OC)c(CCNC(=S)Nc2ccccn2)c1 | IIIB | - | MTT | 0.126 µM
O=S(=O)(O)c1ccc(-c2c3nc(c(-c4ccc(S(=O)(=O)O)cc4)c4ccc([nH]4)c(-c4ccc(S(=O)(=O)O)cc4)c4nc(c(-c5ccc(S(=O)(=O)O)cc5)c5ccc2[nH]5)C=C4)C=C3)cc1 | IIIB | - | cell fusion / fluorescence | >10 µg/mL
CCNC(=O)[C@@H]1Cn2c(=O)c(C(=O)NC)c(O)c3ncc(Cc4ccc(F)cc4)c(c32)O1 | IIIB | - | ATP / luminescence | 0.0041 µM
CC1(C)C=C2C3CCC4[C@@]5(C)CC[C@H](O)C(C)(C)C5CC[C@@]4(C)[C@]3(C)CC[C@@]2(C)C[C@H]1O | NL4-3 | - | - | 64.36 µM
CSc1ccnc(Nc2ccc(C#N)c(Oc3cccc(/C=C/C#N)c3)c2)n1 | IIIB | - | MTT | 0.048 µM
O=C(O)c1ccc(-c2c3nc(c(-c4ccc(C(=O)O)cc4)c4ccc([nH]4)c(-c4ccc(C(=O)O)cc4)c4nc(c(-c5ccc(C(=O)O)cc5)c5ccc2[nH]5)C=C4)C=C3)cc1 | IIIB | - | cell fusion / fluorescence | <10 µg/mL
CC(C)C1=C2[C@H]3CC[C@@H]4[C@@]5(C)CC[C@H](OC(=O)[C@H]6C[C@@H](C(=O)O)C6(C)C)C(C)(C)[C@@H]5CC[C@@]4(C)[C@]3(C)CC[C@@]2(CC(=O)NCC2CCCC2)CC1=O | 92HT599 | - | p24 / ELISA | <1 µM
COc1ccnc(Nc2ccc(C#N)c(Oc3cc(C)cc(C)c3)c2)n1 | IIIB | - | MTT | 0.49 µM
Cc1cc(C)n(CCOc2ccc(-c3cnc(C)c([C@H](OC(C)(C)C)C(=O)O)c3N3CCC(C)(C)CC3)nc2)n1 | NL4-3 | - | luminescence | 0.0076 µM
CC(C)c1ccnc(Nc2ccc(C#N)c(Oc3cccc(/C=C/C#N)c3)c2)n1 | IIIB | - | MTT | 0.046 µM
C=C(C)[C@@H]1CC[C@]2(NCCN3CCS(=O)(=O)CC3)CC[C@]3(C)[C@H](CC[C@@H]4[C@@]5(C)CC[C@H](OC(=O)[C@H]6C[C@@H](C(=O)O)C6(C)C)C(C)(C)[C@@H]5CC[C@]43C)[C@@H]12 | 92HT599 | - | p24 / ELISA | ≤0.01 µM
COc1ccc(S(=O)(=O)O)cc1N=Nc1c(S(=O)(=O)O)cc2cc(Nc3nc(Nc4ccccc4)nc(Nc4cc(C)c(N=Nc5cc(S(=O)(=O)O)cc6cc(S(=O)(=O)O)cc(O)c56)cc4OC)n3)ccc2c1O | IIIB | - | cell fusion / fluorescence | <10 µg/mL
O=c1nccc(NC(=S)NCCc2ccccc2)[nH]1 | IIIB | - | MTT | 0.125 µM
CC1(O)COc2c(Cc3ccc(F)cc3)cnc3c(O)c(C(=O)NCCO)c(=O)n(c23)C1 | IIIB | - | ATP / luminescence | 0.002 µM
Cc1cc(C)nc(NC(=S)NCCc2c(Cl)cccc2Cl)c1 | IIIB | - | MTT | 0.07 µM
Cc1ccc(OCCN(C)c2ccc(-c3cnc(C)c([C@H](OC(C)(C)C)C(=O)O)c3N3CCC(C)(C)CC3)nc2)cc1C | NL4-3 | - | luminescence | 0.005 µM
CC(C)C1=C2[C@H]3CC[C@@H]4[C@@]5(C)CC[C@H](OC(=O)[C@H]6C[C@@H](C(=O)O)C6(C)C)C(C)(C)[C@@H]5CC[C@@]4(C)[C@]3(C)CC[C@@]2(CCNC(=O)c2ccc(C(F)(F)F)cc2)CC1=O | 92HT599 | - | p24 / ELISA | <1 µM
CCNC(=O)[C@@H]1Cn2c(=O)c(C(=O)NCCOC)c(O)c3ncc(Cc4ccc(F)cc4)c(c32)O1 | IIIB | - | ATP / luminescence | 0.008 µM
CC(C)C1=C2[C@H]3CC[C@@H]4[C@@]5(C)CC[C@H](OC(=O)[C@H]6C[C@@H](C(=O)O)C6(C)C)C(C)(C)[C@@H]5CC[C@@]4(C)[C@]3(C)CC[C@@]2([C@@H](O)CNCCNC(=O)c2ccc(Cl)cc2)CC1=O | 92HT599 | - | p24 / ELISA | <1 µM
COc1ccnc(Nc2ccc(C#N)c(Oc3cccc(Cl)c3)c2)n1 | IIIB | - | MTT | 0.64 µM
CC(C)C1=C2[C@H]3CC[C@@H]4[C@@]5(C)CC[C@H](OC(=O)[C@H]6C[C@@H](C(=O)O)C6(C)C)C(C)(C)[C@@H]5CC[C@@]4(C)[C@]3(C)CC[C@@]2(CC(=O)NCc2nc3ccccc3[nH]2)CC1=O | 92HT599 | - | p24 / ELISA | <1 µM
CNC(=O)[C@@]1(C)Cn2c(=O)c(C(=O)NCCC#N)c(O)c3ncc(Cc4ccc(F)cc4)c(c32)O1 | IIIB | - | ATP / luminescence | 0.078 µM

Repeating the final 4 entries:

smiles,strain,mutations,method,result
CC(C)C1=C2[C@H]3CC[C@@H]4[C@@]5(C)CC[C@H](OC(=O)[C@H]6C[C@@H](C(=O)O)C6(C)C)C(C)(C)[C@@H]5CC[C@@]4(C)[C@]3(C)CC[C@@]2([C@@H](O)CNCCNC(=O)c2ccc(Cl)cc2)CC1=O,92HT599,-,p24 / ELISA,<1 µM
COc1ccnc(Nc2ccc(C#N)c(Oc3cccc(Cl)c3)c2)n1,IIIB,-,MTT,0.64 µM
CC(C)C1=C2[C@H]3CC[C@@H]4[C@@]5(C)CC[C@H](OC(=O)[C@H]6C[C@@H](C(=O)O)C6(C)C)C(C)(C)[C@@H]5CC[C@@]4(C)[C@]3(C)CC[C@@]2(CC(=O)NCc2nc3ccccc3[nH]2)CC1=O,92HT599,-,p24 / ELISA,<1 µM
CNC(=O)[C@@]1(C)Cn2c(=O)c(C(=O)NCCC#N)c(O)c3ncc(Cc4ccc(F)cc4)c(c32)O1,IIIB,-,ATP / luminescence,0.078 µM